Anti-infective test results gathered from many reports (values: NIAID ChemDB through PubChem).

Common to all: enzyme or target tests; species: Hepatitis C virus; protein: NS3/NS4A protease; endpoint: IC50

a–b is a range or a potency band. Neighbouring rows are from separate reports. ICn: concentration for n% inhibition.

{"SMILES": "C=C[C@@H]1C[C@]1(NC(=O)C1C[C@@H](Oc2cc(-c3csc(NC4CCCC4)n3)nc3cc(OC)ccc23)CN1C(=O)[C@@H](NC(=O)OC1CCC1)C(C)(C)C)C(=O)O", "value": "<0.1 µM"}
{"SMILES": "C=C[C@H]1C[C@@]1(NC(=O)[C@@H]1C[C@@H](Oc2cc(-c3ccccc3)nc3cc(OC)ccc23)CN1C(=O)[C@@H](NC(=O)OC(C)(C)C)C(C)(C)C)C(=O)NS(=O)(=O)C1(I)CC1", "strain or isolate": "BMS", "value": "<0.05 µM"}
{"SMILES": "C=CC1C[C@]1(NC(=O)[C@@H]1C[C@@H](Oc2cc(-c3ccccc3)nc3cc(OC)ccc23)CN1C(=O)[C@@H](NC(=O)OC(C)(C)C)C(C)(C)C)C(=O)NS(=O)(=O)C1CCS(=O)(=O)C1", "strain or isolate": "BMS", "value": "<0.1 µM"}
{"SMILES": "C=CC1CC1(NC(=O)[C@@H]1C[C@@H](OC(=O)Nc2ccccc2C(=O)OC(C)C)CN1C(=O)[C@@H](NC(=O)OC(C)(C)C)C(C)(C)C)C(=O)NS(=O)(=O)C1CC1", "strain or isolate": "BMS/H77C/J416S", "value": "<0.1 µM"}
{"SMILES": "C=CC1C[C@@]1(NC(=O)[C@@H]1C[C@@H](Oc2cc(-c3csc(NC(C)C)n3)nc3cc(OC)ccc23)CN1C(=O)[C@@H](NC(=O)OC(C)(C)C)C(C)(C)C)C(=O)NS(=O)(=O)C1(CC2CC2)CC1", "strain or isolate": "BMS", "value": "<0.05 µM"}
{"SMILES": "C=CC1CC1(NC(=O)[C@@H]1C[C@@H](OC(=O)N(CC)CC)CN1C(=O)[C@@H](NC(=O)OC(C)(C)C)C(C)(C)C)C(=O)NS(=O)(=O)C1CC1", "strain or isolate": "BMS/H77C/J416S", "value": "<0.1 µM"}
{"SMILES": "C=CC1CC1(NC(=O)C1C[C@@H](Oc2cc(-c3ccccc3)nc3cc(OC)ccc23)CN1C(=O)C(NC(=O)OC(C)(C)C)C(C)(C)C)C(=O)OCC", "strain or isolate": "J4L6S", "value": "0.008 µM"}
{"SMILES": "C#CC[C@@H](C=O)C(=O)[C@H](CCC(=O)O)NC(=O)[C@@H](CCC(=O)O)NC(=O)[C@H](Cc1ccccc1)NC(=O)[C@H](CCC(=O)O)NC(=O)[C@H](CC(=O)O)NC(=O)CCC(=O)O", "value": "41 µM"}
{"SMILES": "C=C[C@@H]1C[C@]1(NC(=O)[C@@H]1C[C@@H](Oc2cc(-c3ccccc3)nc3cc(OC)ccc23)CN1C(=O)[C@@H](NC(=O)C(C)(C)C)C(C)(C)C)C(=O)NS(=O)(=O)C1CC1", "strain or isolate": "BMS", "value": "<0.05 µM"}
{"SMILES": "C#CC[C@@H](C=O)C(=O)[C@H](CCC(=O)O)NC(=O)[C@@H](CCC(=O)O)NC(=O)[C@H](Cc1ccc(C)cc1)NC(=O)[C@H](CCC(=O)O)NC(=O)[C@H](CC(=O)O)NC(=O)CCC(=O)O", "value": "20 µM"}
{"SMILES": "C=CC1CC1(NC(=O)[C@@H]1C[C@@H](OC(=O)Nc2ccccc2C(=O)OCC)CN1C(=O)[C@@H](NC(=O)OC)C(C)(C)C)C(=O)NS(=O)(=O)C1CC1", "strain or isolate": "BMS/H77C/J416S", "value": "<0.1 µM"}
{"SMILES": "C=CCC1(S(=O)(=O)NC(=O)C2(NC(=O)[C@@H]3C[C@@H](Oc4cc(-c5ccccc5)nc5cc(OC)ccc45)CN3C(=O)[C@@H](NC(=O)OC(C)(C)C)C(C)(C)C)CC2)CC1", "strain or isolate": "BMS", "value": "<0.05 µM"}
{"SMILES": "C=CC1C[C@]1(NC(=O)[C@@H]1C[C@@H](Oc2cc(-c3ccccc3)nc3cc(OC)ccc23)CN1C(=O)[C@@H](NC(=O)OC(C)(C)C)C(C)(C)C)C(=O)NS(=O)(=O)c1ccc([N+](=O)[O-])s1", "strain or isolate": "BMS", "value": "0.1–1 µM"}
{"SMILES": "CCCCSC[C@@H](C=O)NC(=O)[C@H](CC(C)C)NC(=O)[C@@H](NC(=O)[C@H](Cc1ccccc1C)NC(=O)[C@H](CCC(=O)O)NC(=O)[C@H](CC(=O)O)NC(=O)CCC(=O)O)C(C)(C)C", "value": "0.165 µM"}
{"SMILES": "C=C[C@H]1C[C@@]1(NC(=O)[C@@H]1C[C@@H](Oc2ccnc3cc(Cl)ccc23)CN1C(=O)[C@@H](NC(=O)OC1CCCC1)C(C)(C)C)C(=O)NS(=O)(=O)C1(CCC)CC1", "strain or isolate": "BMS", "value": "<0.05 µM"}
{"SMILES": "C=CC1C[C@]1(NC(=O)[C@@H]1C[C@@H](Oc2cc(-c3ccccc3)nc3cc(OC)ccc23)CN1C(=O)[C@@H](NC(=O)OC(C)(C)C)C(C)(C)C)C(=O)NS(=O)(=O)c1cc([N+](=O)[O-])c(Cl)s1", "strain or isolate": "BMS", "value": "<0.1 µM"}
{"SMILES": "C=CC1CC1(NC(=O)[C@@H]1C[C@@H](OC(=O)Nc2cc(C#N)ccc2-n2cccn2)CN1C(=O)[C@@H](NC(=O)OC(C)(C)C)C(C)(C)C)C(=O)NS(=O)(=O)C1CC1", "strain or isolate": "BMS/H77C/J416S", "value": "<0.1 µM"}
{"SMILES": "C=C[C@@H]1C[C@]1(NC(=O)[C@@H]1C[C@@H](Oc2cc(-c3ccccc3)nc3cc(OC)ccc23)CN1C(=O)[C@@H](NC(=O)OC(C)(C)C)C(C)C)C(=O)NS(=O)(=O)C(C)C", "strain or isolate": "BMS", "value": "<0.05 µM"}
{"SMILES": "C=C[C@@H]1C[C@]1(NC(=O)C1C[C@@H](Oc2cc(-c3csc(NC4CCCC4)n3)nc3cc(OC)ccc23)CN1C(=O)[C@@H](NC(=O)OC1CCCC1)C(C)(C)C)C(=O)O", "value": "<0.1 µM"}
{"SMILES": "CCOC(=O)N[C@H](C(=O)N1C[C@H](Oc2cc(-c3ccccc3)nc3cc(OC)ccc23)C[C@H]1C(=O)N[C@]1(C(=O)NS(=O)(=O)C2CC2)C[C@H]1CC)C(C)C", "strain or isolate": "BMS", "value": "<0.05 µM"}
{"SMILES": "C=C[C@H]1C[C@@]1(NC(=O)[C@@H]1C[C@@H](Oc2cc(-c3ccccc3)nc3cc(OC)ccc23)CN1C(=O)[C@@H](NC(=O)OC(C)(C)C)C(C)(C)C)C(=O)NS(=O)(=O)C1(CC)CC1", "strain or isolate": "BMS", "value": "<0.05 µM"}
{"SMILES": "C=CC1C[C@]1(NC(=O)[C@@H]1C[C@@H](Oc2cc(-c3ccccc3)nc3cc(OC)ccc23)CN1C(=O)[C@@H](NC(=O)OC(C)(C)C)C(C)(C)C)C(=O)NS(=O)(=O)c1c(C)noc1C", "strain or isolate": "BMS", "value": "<0.1 µM"}
{"SMILES": "CCC[C@@H](C=O)NC(=O)[C@H](CC(C)C)NC(=O)[C@@H](NC(=O)[C@H](Cc1ccccc1C)NC(=O)[C@H](CCC(=O)O)NC(=O)[C@H](CC(=O)O)NC(=O)CCC(=O)O)C(C)(C)C", "value": "0.145 µM"}
{"SMILES": "C=C[C@@H]1C[C@]1(NC(=O)[C@@H]1C[C@@H](Oc2cc(-c3ccccc3)nc3cc(OC)ccc23)CN1C(=O)[C@@H](NS(=O)(=O)C1CC1)C(C)(C)C)C(=O)NS(=O)(=O)C1CC1", "strain or isolate": "BMS", "value": "<0.05 µM"}
{"SMILES": "COc1ccc2c(O[C@@H]3C[C@@H](C(=O)N[C@@]4(C(=O)NS(=O)(=O)C5(Cc6ccccc6)CC5)CC45CC5)N(C(=O)[C@@H](NC(=O)OC(C)(C)C)C(C)(C)C)C3)cc(-c3ccccc3)nc2c1", "strain or isolate": "BMS", "value": "0.5–5 µM"}
{"SMILES": "C=CC1CC1(NC(=O)[C@@H]1C[C@@H](OC(=O)Nc2cc(F)ccc2-n2cccn2)CN1C(=O)[C@@H](NC(=O)OC(C)(C)C)C(C)(C)C)C(=O)NS(=O)(=O)C1CC1", "strain or isolate": "BMS/H77C/J416S", "value": "<0.1 µM"}
{"SMILES": "CSCC[C@H](NC(=O)[C@H](CCC(=O)O)NC(=O)[C@H](CC(=O)O)NC(=O)CCC(=O)O)C(=O)N[C@@H](CCC(=O)O)C(=O)N[C@@H](CCC(=O)O)C(=O)[C@@H](C)C=O", "value": ">200 µM"}
{"SMILES": "C=CC1CC1(NC(=O)[C@@H]1C[C@@H](OC(=O)N[C@H](C)c2cccc3ccccc23)CN1C(=O)[C@@H](NC(=O)OC(C)(C)C)C(C)(C)C)C(=O)O", "strain or isolate": "BMS/H77C/J416S", "value": ">10 µM"}
{"SMILES": "C=C[C@@H]1C[C@]1(NC(=O)[C@@H]1C[C@@H](Oc2cc(-c3ccccc3)nc3cc(OC)ccc23)CN1C(=O)[C@@H](NC(=O)OC(C)(C)C)C(C)(C)C)C(=O)NS(=O)(=O)c1ccc(NC(C)=O)cc1", "strain or isolate": "BMS", "value": "<0.05 µM"}
{"SMILES": "C=CC1CC1(NC(=O)[C@@H]1C[C@@H](OC(=O)Nc2cc(C)ccc2-n2cccn2)CN1C(=O)[C@@H](NC(=O)OC(C)(C)C)C(C)(C)C)C(=O)NS(=O)(=O)C1CC1", "strain or isolate": "BMS/H77C/J416S", "value": "<0.1 µM"}
{"SMILES": "CCCCCCCCCCCCCNC(=O)c1c(O)cc(O)c([N+](=O)[O-])c1O", "value": "5.8 µM"}
{"SMILES": "CC[C@H](C)[C@H](NC(=O)[C@H](CCSC)NC(=O)[C@H](CCC(=O)O)NC(=O)[C@H](CC(=O)O)NC(=O)CCC(=O)O)C(=O)N[C@@H](CCC(=O)O)C(=O)N[C@H](C=O)CC(F)(F)F", "value": "2 µM"}
{"SMILES": "C=CC1C[C@]1(NC(=O)[C@@H]1C[C@@H](Oc2cc(-c3ccccc3)nc3cc(OC)ccc23)CN1C(=O)[C@@H](NC(=O)OC(C)(C)C)C(C)(C)C)C(=O)NS(=O)(=O)c1ccc(Sc2ccc(Cl)cc2)s1", "strain or isolate": "BMS", "value": "0.1–1 µM"}
{"SMILES": "C=CC1CC1(NC(=O)[C@@H]1C[C@@H](OC(=O)Nc2ccccn2)CN1C(=O)[C@@H](NC(=O)OC(C)(C)C)C(C)(C)C)C(=O)NS(=O)(=O)C1CC1", "strain or isolate": "BMS/H77C/J416S", "value": "0.1–1 µM"}
{"SMILES": "C=CC1C[C@]1(NC(=O)[C@@H]1C[C@@H](Oc2cc(-c3ccccc3)nc3cc(OC)ccc23)CN1C(=O)[C@@H](NC(=O)OC(C)(C)C)C(C)(C)C)C(=O)NS(=O)(=O)c1ccc(-c2cc(C(F)(F)F)nn2C)s1", "strain or isolate": "BMS", "value": "<0.1 µM"}
{"SMILES": "CSCC[C@H](NC(=O)[C@H](CCC(=O)O)NC(=O)[C@H](CC(=O)O)NC(=O)CCC(=O)O)C(=O)NCC(=O)N[C@@H](CCC(=O)O)C(=O)N[C@H](C=O)CC(F)(F)F", "value": "1 µM"}
{"SMILES": "C=C[C@@H]1C[C@]1(NC(=O)[C@@H]1C[C@@H](Oc2cc(-c3ccccc3)nc3cc(OC)ccc23)CN1C(=O)[C@@H](NC(=O)N(CCC(F)(F)F)CC1CC1)C(C)(C)C)C(=O)NS(=O)(=O)C1CC1", "strain or isolate": "BMS", "value": "<0.05 µM"}
{"SMILES": "COc1ccc2c(O[C@@H]3C[C@@H](C(=O)N[C@@]4(C(=O)NS(=O)(=O)C5(CC6CC6)CC5)CC4C4CC4)N(C(=O)[C@@H](NC(=O)OC(C)(C)C)C(C)(C)C)C3)cc(-c3ccccc3)nc2c1", "strain or isolate": "BMS", "value": "<0.05 µM"}

A second listing of 5 rows from above:

SMILES,strain or isolate,value
C=C[C@H]1C[C@@]1(NC(=O)[C@@H]1C[C@@H](Oc2ccnc3cc(Cl)ccc23)CN1C(=O)[C@@H](NC(=O)OC1CCCC1)C(C)(C)C)C(=O)NS(=O)(=O)C1(CCC)CC1,BMS,<0.05 µM
C=CC1CC1(NC(=O)C1C[C@@H](Oc2cc(-c3ccccc3)nc3cc(OC)ccc23)CN1C(=O)C(NC(=O)OC(C)(C)C)C(C)(C)C)C(=O)OCC,J4L6S,0.008 µM
COc1ccc2c(O[C@@H]3C[C@@H](C(=O)N[C@@]4(C(=O)NS(=O)(=O)C5(Cc6ccccc6)CC5)CC45CC5)N(C(=O)[C@@H](NC(=O)OC(C)(C)C)C(C)(C)C)C3)cc(-c3ccccc3)nc2c1,BMS,0.5–5 µM
C=CC1CC1(NC(=O)[C@@H]1C[C@@H](OC(=O)Nc2cc(C)ccc2-n2cccn2)CN1C(=O)[C@@H](NC(=O)OC(C)(C)C)C(C)(C)C)C(=O)NS(=O)(=O)C1CC1,BMS/H77C/J416S,<0.1 µM
C=C[C@H]1C[C@@]1(NC(=O)[C@@H]1C[C@@H](Oc2cc(-c3ccccc3)nc3cc(OC)ccc23)CN1C(=O)[C@@H](NC(=O)OC(C)(C)C)C(C)(C)C)C(=O)NS(=O)(=O)C1(I)CC1,BMS,<0.05 µM